{
  "source": "paper PMC6470140",
  "about": "(Nature Communications, 2019)",
  "binders": {"B1": {"name": "BDBV223 monoclonal antibody (wild type IgG) (antibody, V domains shown)", "VH": "QVQLQQWGAGLLKPSETLSLTCAVYGGSFTTTYWNWIRQPPGKGLEWIGEVNYSGNANYNPSLKGRVAISVDTSKNQFSLRLNSVTAADTAIYYCTSRIRSHIAYSWKGDVWGKGTTVTVSS", "VL": "EIVMTQSPGTLSLSPGERATLSCRASQSVPRNYIGWFQQKPGQAPRLLIYGASSRAAGFPDRFSGSGSGTDFTLTITRLEPEDFAMYYCHQYDRLPYTFGQGTKLEIK"}},
  "target": "EBOV GP ΔTM (residues 1-636; strain Makona) (Zaire ebolavirus (EBOV), strain Makona, …, UniProt A0A068J419)",
  "details": "both partners purified",
  "data": [
    {"binder": "B1", "values": [
      {"measurement": "binding result", "result": "binds"}
    ]}
  ]
}
